Results of unrelated studies side by side (data: NIAID ChemDB).

Shared fields: whole-cell or culture tests; organism: HIV-1; cells: MT-4; measure: EC50

Neighbouring rows are from separate reports. An empty or dashed field is not shown. ECn is the concentration giving n% inhibition of infection, replication or growth.

| compound | strain | mutations | method | result |
|---|---|---|---|---|
| Cn1cnc(S(=O)(=O)Nc2cccc(C(c3c(O)cc(CCc4ccccc4)oc3=O)C3CC3)c2)c1 | IIIB | - | p24 | >>3 µM |
| c1cc(CN2CCCNCCNCCCNCC2)cc(CN2CCCNCCNCCCNCC2)c1 | IIIB | - | cytopathic effect / MTT | 0.04 µg/mL |
| C[C@H]1O[C@H](Oc2c(-c3ccc(O)c(O)c3)oc3cc(O)cc(O)c3c2=O)[C@@H](O)[C@@H](O)[C@@H]1O | NL4-3 | - | p24 / ELISA | >20 µg/mL |
| CC(C)CN(C[C@@H](O)[C@H](Cc1ccccc1)NC(=O)O[C@H]1CCOC1)S(=O)(=O)c1ccc(N)cc1 | - | - | cytopathic effect | 0.08 µM |
| COC(=O)[C@H](C)NP(=O)(OC[C@@H]1C=C[C@H](n2cnc3c(N)ncnc32)O1)Oc1ccccc1 | IIIB | - | syncytia | 0.007 µM |
| [Li+] | IIIB | - | antigen | >1000 µg/mL |
| CN(C)C(=O)/C=C/CSc1nc(N)cc(Cl)n1 | RT-WT | - | p24 | <0.09 µM |
| CC(C)(C)OC(=O)N[C@@H](Cc1ccccc1)[C@@H](O)C[C@@H](Cc1ccc(OCc2nnnn2Cc2ccccc2)cc1)C(=O)N[C@H]1c2ccccc2C[C@H]1O | IIIB | - | cytopathic effect / MTT | 0.05 µM |
| O=c1[nH]cnc2c1ncn2[C@H]1CC[C@@H](CO)O1 | Clinical isolate 263 | - | RT activity | 3.6 µM |
| O=S1(=O)N(Cc2ccc(CO)cc2)[C@H](COc2ccccc2)[C@H](O)[C@@H](O)[C@@H](COc2ccccc2)N1Cc1ccc(CO)cc1 | - | - | cytopathic effect | 1.55 µM |
| O=c1oc(C(CC2CC2)CC2CC2)cc(O)c1C(c1cccc(NS(=O)(=O)c2ccc(F)cc2)c1)C1CC1 | IIIB | - | p24 | 2.2 µM |
| O=C1O[C@H]2[C@@H]3OC(=O)c4cc(O)c(O)c(O)c4-c4c(cc(O)c(O)c4O)C(=O)OC[C@H]2O[C@@H](OC(=O)c2cc(O)c(O)c(O)c2)[C@@H]3OC(=O)c2cc(O)c(O)c3c2[C@@H]2C1=CC(=O)[C@](O)(O3)C2(O)O | IIIB | - | cytopathic effect / MTT | >25 µg/mL |
| CC1CCCCN1CCCNC(=O)Cc1ccc(CC(=O)NCCCN2CCCCC2C)cc1 | - | - | MTT | 144 µM |
| O=C(O)/C=C(\CC(=O)O)C(=O)O | IIIB | - | cytopathic effect / MTT | >25 µM |
| CC[C@H](C)[C@H](NC(=O)[C@H](OCc1ccccc1)[C@H](O)[C@@H](O)[C@@H](OCc1ccccc1)C(=O)N[C@H](C(=O)NC)[C@@H](C)CC)C(=O)NC | - | - | cytopathic effect | 1.17 µM |
| C=C(C)[C@]12C[C@@H](COC(=O)c3ccccc3)[C@@]34OC5(O[C@@H]1[C@@H]3[C@@H]1O[C@]1(CO)[C@@H](O)[C@@]1(O)[C@H]4[C@H]([C@H](C)[C@@H]1OC(=O)c1ccccc1)[C@H](C)CCCCCC[C@H]5O)O2 | NL4-3 | - | p24 / ELISA | 0.000061 µM |
| CCc1s/c(=N\S(=O)(=O)c2cccc([N+](=O)[O-])c2)n(C)c1C | IIIB | - | cytopathic effect / MTT | 0.23 µM |
| Cc1cn([C@H]2C[C@H](N=[N+]=[N-])[C@@H](CO)O2)c(=O)[nH]c1=O | IIIB | - | p24 | 0.0005 µM |
| C[C@H]1O[C@H](Oc2c(-c3ccc(O)cc3)oc3c(c(O)cc4oc(C(C)(C)O)cc43)c2=O)[C@@H](O)[C@@H](O)[C@@H]1O | NL4-3 | - | p24 / ELISA | >20 µg/mL |
| CNC(=O)[C@@H](NC(=O)[C@H](OCc1ccccc1)[C@H](O)[C@@H](O)[C@@H](OCc1ccccc1)C(=O)N[C@H]1c2ccccc2C[C@H]1O)C(C)C | - | - | cytopathic effect | 0.12 µM |
| CCOC(=O)CNc1c([N+]#N)c(C)nn1-c1ccccc1 | - | - | cytopathic effect / MTT | >122 µM |
| CCOC(=O)c1cc(O)c(O)c(O)c1 | IIIB | - | cytopathic effect / MTT | >12.5 µg/mL |
| CCc1c(C(=O)c2cccc3ccccc23)n(Cc2ccccc2)c(=O)[nH]c1=O | IIIB | - | cytopathic effect / MTT | 1.07 µM |
| O=S1(=O)N(Cc2ccc(CCO)cc2)[C@H](COc2ccccc2)[C@H](O)[C@@H](O)[C@@H](COc2ccccc2)N1Cc1ccc(CCO)cc1 | - | - | cytopathic effect | >75 µM |
| CC(C)=CCN1c2cc(Cl)cc3[nH]c(=S)n(c23)C[C@@H]1C | - | RT-M41L T215Y Y181C | - | >3 µM |
| Nc1nc(=O)n([C@H]2CO[C@@H](CO)S2)cc1F | IIIB | - | p24 | 3.2 µM |
| Cc1nn(-c2ccccc2)c2nc(NCc3ccccc3)oc12 | - | - | cytopathic effect / MTT | >23 µM |
| CCC(CC)c1cc(O)c(C(c2cccc(NS(=O)(=O)c3cn(C)cn3)c2)C2CC2)c(=O)o1 | IIIB | - | p24 | >>3 µM |
| Cc1cc(-c2ccc(C#N)cc2)cc(C)c1Oc1nc(Nc2ccc(C#N)cc2)nc2ccsc12 | IIIB | - | MTT | 0.038 µM |
| CC(C)Nc1cccnc1N1CCN(C(=O)c2ccc(-c3ccc(NS(C)(=O)=O)cc3)[nH]2)CC1 | IIIB | - | p24 | <0.8 µM |
| CC(C)c1c(C(=O)c2cccc3ccccc23)n(Cc2ccccc2)c(=O)[nH]c1=O | IIIB | - | cytopathic effect / MTT | 0.3 µM |
| CC(C)(C)NC(=O)c1ccccc1NC[C@H](O)[C@H](Cc1ccccc1)NC(=O)[C@H](CC(N)=O)NC(=O)c1ccc2ccccc2n1 | - | - | cytopathic effect | 10.12 µM |
| Cc1cn([C@H]2C[C@H](N(C)O)[C@@H](CO)O2)c(=O)[nH]c1=O | IIIB | - | trypan blue | 0.86 µg/mL |
| CCN(CC)C(=O)/C=C/CSc1nc(N)cc(Cl)n1 | RT-WT | - | p24 | <0.02 µM |
| O=c1[nH]cnc2c1ncn2[C@H]1CC[C@@H](CO)O1 | IIIB | - | trypan blue | 1.2 µg/mL |
| Oc1cc(O)c2c(c1)O[C@H](c1ccc(O)c(O)c1)[C@@H](O)C2 | IIIB | - | cytopathic effect / MTT | >100 µg/mL |
| Cc1c(C(C)(C)C)s/c(=N\S(=O)(=O)c2cccc([N+](=O)[O-])c2)n1C | IIIB | - | cytopathic effect / MTT | 0.085 µM |
| O=C(NCCc1ccc(O)c(O)c1)c1cc2cc(O)c(O)cc2[nH]1 | IIIB | - | MTT | >153 µM |
| CCC(Cc1ccccc1)c1cc(O)c(C(c2cccc(NS(=O)(=O)c3cccnc3)c2)C2CC2)c(=O)o1 | IIIB | - | p24 | 2.6 µM |
| Nc1nc(N)c2ncn([C@H]3CO[C@@H](CO)O3)c2n1 | IIIB | - | - | 0.95 µM |
| CNC(=O)[C@H](Cc1ccccc1)NC(=O)[C@H](OCc1ccccc1)[C@H](O)[C@@H](O)[C@@H](OCc1ccccc1)C(=O)N[C@@H](Cc1ccccc1)C(=O)NC | - | - | cytopathic effect | >140 µM |
| CCc1c(C(=O)c2cccc3ccccc23)n(CC=C(C)C)c(=O)[nH]c1=O | IIIB | - | cytopathic effect / MTT | 6.6 µM |
| Cc1nn(-c2ccccc2)c2nc(NC(C)(C)C)oc12 | - | - | cytopathic effect / MTT | >18 µM |
| Cc1cn([C@H]2C[C@H](N=[N+]=[N-])[C@@H](CO)O2)c(=O)[nH]c1=O | HXB2 | - | p24 / ELISA | 0.128 µM |
| CCc1c(C(=O)c2cccc3ccccc23)n(CC(=O)c2ccc(OC)cc2)c(=O)[nH]c1=O | IIIB | - | cytopathic effect / MTT | >28.75 µM |
| CNC(=O)[C@@H](NC(=O)[C@H](OCc1ccc(C2=C(O)C(=O)CCC2)cc1)[C@H](O)[C@@H](O)[C@@H](OCc1ccc(C2=C(O)C(=O)CCC2)cc1)C(=O)N[C@H](C(=O)NC)C(C)C)C(C)C | - | - | cytopathic effect | 5.6 µM |
| c1cc(CNCCN2CCCCC2)ccc1CNCCN1CCCCC1 | - | - | MTT | >32.6 µM |
| Cc1cn([C@H]2C[C@H](N=[N+]=[N-])[C@@H](CO)O2)c(=O)[nH]c1=O | IIIB | - | cytopathic effect / MTT | 0.0014 µg/mL |
| Nc1ccn([C@H]2CC[C@@H](CO)O2)c(=O)n1 | IIIB | - | RT activity | 0.53 µM |
| Cc1c(C(C)C)s/c(=N\S(=O)(=O)c2cccc([N+](=O)[O-])c2)n1C | IIIB | - | cytopathic effect / MTT | 0.1 µM |
| c1cc(CCNCCN2CCCCC2)ccc1CCNCCN1CCCCC1 | - | - | MTT | 0.26 µM |
| CC(C)(C)OC(=O)N[C@@H](Cc1ccccc1)[C@@H](O)C[C@@H](Cc1ccc(OCP(=O)(O)O)cc1)C(=O)N[C@H]1c2ccccc2C[C@H]1O | IIIB | - | cytopathic effect / MTT | 0.16 µM |
| COCn1c(C(=O)c2cccc3ccccc23)c(C(C)C)c(=O)[nH]c1=O | IIIB | - | cytopathic effect / MTT | 0.88 µM |
| N#Cc1ccc(Nc2nc(Oc3ccc(-c4ccc(C#N)cc4)cc3[N+](=O)[O-])c3sccc3n2)cc1 | IIIB | E138K | MTT | 0.0065 µM |
| CCCN(C)c1c(Cc2cc(C)cc(C)c2)c(CC)c(C)[nH]c1=O | Recombinant | RT-Y181C | cytopathic effect / MTT | 0.398 µM |
| C=C(C)[C@]12C[C@@H](COC(C)=O)[C@@]34OC5(O[C@@H]1[C@@H]3[C@@H]1O[C@]1(COC(=O)c1ccccc1)[C@@H](O)[C@@]1(O)[C@H]4[C@H]([C@H](C)[C@@H]1O)[C@H](C)CC(OC(=O)c1ccccc1)C(OC(C)=O)C(OC(=O)c1ccccc1)CC[C@H]5O)O2 | NL4-3 | - | p24 / ELISA | 0.0029 µM |
| CCc1c(C(=O)c2cccc3ccccc23)n(C/C=C/c2ccccc2)c(=O)[nH]c1=O | IIIB | - | cytopathic effect / MTT | 0.19 µM |
| Cc1cc(C)cc(Cc2c(CC(C)C)c(C)[nH]c(=O)c2N(C)C)c1 | Recombinant | RT-Y188L | cytopathic effect / MTT | 2.512 µM |
| O=C(O[C@H](Cc1ccc(O)c(O)c1)C(=O)O)C1=Cc2cc(O)c(O)cc2[C@@H](c2ccc(O)c(O)c2)[C@@H]1C(=O)O[C@H](Cc1ccc(O)c(O)c1)C(=O)O | IIIB | - | cytopathic effect / MTT | >50 µg/mL |
| Cc1ccnc2c1NC(=O)c1cccnc1N2C1CC1 | IIIB | - | MTT | 0.31 µM |
| c1cc(CN2CCCNCCNCCCNCC2)ccc1CN1CCCNCCNCCCNCC1 | RF | - | cytopathic effect / MTT | 0.001 µg/mL |
| O=C(OC1OC2COC(=O)c3cc(O)c(O)c(O)c3-c3c(cc(O)c(O)c3O)C(=O)OC2C(OC(=O)c2cc(O)c(O)c(O)c2)C1OC(=O)c1cc(O)c(O)c(O)c1)c1cc(O)c(O)c(Oc2c(C(=O)O)cc(O)c(O)c2O)c1 | IIIB | - | cytopathic effect / MTT | >50 µg/mL |
| Nc1cc[n+](C2CCC(CO)O2)c(=O)[nH]1 | IIIB | - | MTT | 0.54 µg/mL |
| CCC(CC1CCOCC1)c1cc(O)c(C(c2cccc(NS(=O)(=O)c3cn(C)cn3)c2)C2CC2)c(=O)o1 | IIIB | - | p24 | 4.2 µM |
| COC(=O)[C@H](C)NP(=O)(OC[C@H]1O[C@@H](n2cc(C)c(=O)[nH]c2=O)CC1N=[N+]=[N-])Oc1ccccc1 | ROD | - | MTT | 0.031 µM |
| CC(C)OP(=O)(COc1ccc(C[C@H](C[C@H](O)[C@H](Cc2ccccc2)NC(=O)OC(C)(C)C)C(=O)N[C@H]2c3ccccc3C[C@H]2O)cc1)OC(C)C | IIIB | - | cytopathic effect / MTT | 0.02 µM |
| N#Cc1ccc(Nc2nc(Oc3ccc(-c4ccc(C#N)cc4)cc3C(F)(F)F)c3sccc3n2)cc1 | IIIB | - | MTT | 0.0546 µM |
| CC(C)Nc1cccnc1N1CCN(C(=O)c2cc3cc(NS(C)(=O)=O)ccc3[nH]2)CC1 | IIIB | - | cytopathic effect / MTT | 0.0039 µM |
| Nc1cc(Cl)nc(SCc2ccc3ccccc3c2)n1 | RT-WT | - | p24 | <0.22 µM |
| CC(C)(C)OC(=O)N[C@@H](Cc1ccccc1)[C@@H](O)C[C@@H](Cc1ccc(OCC(=O)O)cc1)C(=O)N[C@H]1c2ccccc2C[C@H]1O | IIIB | - | cytopathic effect / MTT | >10 µM |
| O=c1[nH]cnc2c1ncn2[C@H]1CC[C@@H](CO)O1 | IIIB | - | cytopathic effect / MTT | 5.37 µM |
| Cn1nc(C(F)(F)F)cc1-c1ccc(CN2CCN(C[C@@H](O)C[C@@H](Cc3ccccc3)C(=O)N[C@H]3c4ccccc4C[C@H]3O)[C@H](C(=O)NC(C)(C)C)C2)s1 | IIIB | - | p24 | <0.006 µM |
| CC(=O)O[C@@]12C[C@@H](C)[C@@]3(O)[C@@H](C=C(CO)C[C@]4(O)C(=O)C(C)=C[C@@H]34)[C@@H]1C2(C)C | NL4-3 | - | cytopathic effect / MTT | 0.06 µg/mL |

Again, the opening 7 rows:

compound | strain | mutations | method | result
Cn1cnc(S(=O)(=O)Nc2cccc(C(c3c(O)cc(CCc4ccccc4)oc3=O)C3CC3)c2)c1 | IIIB | - | p24 | >>3 µM
c1cc(CN2CCCNCCNCCCNCC2)cc(CN2CCCNCCNCCCNCC2)c1 | IIIB | - | cytopathic effect / MTT | 0.04 µg/mL
C[C@H]1O[C@H](Oc2c(-c3ccc(O)c(O)c3)oc3cc(O)cc(O)c3c2=O)[C@@H](O)[C@@H](O)[C@@H]1O | NL4-3 | - | p24 / ELISA | >20 µg/mL
CC(C)CN(C[C@@H](O)[C@H](Cc1ccccc1)NC(=O)O[C@H]1CCOC1)S(=O)(=O)c1ccc(N)cc1 | - | - | cytopathic effect | 0.08 µM
COC(=O)[C@H](C)NP(=O)(OC[C@@H]1C=C[C@H](n2cnc3c(N)ncnc32)O1)Oc1ccccc1 | IIIB | - | syncytia | 0.007 µM
[Li+] | IIIB | - | antigen | >1000 µg/mL
CN(C)C(=O)/C=C/CSc1nc(N)cc(Cl)n1 | RT-WT | - | p24 | <0.09 µM